For orientation: IC50 means the midpoint of a concentration-inhibition curve.

Protein sequences, listed by entry. Tags and fused reporters are not part of them. Residues count along the entry.
UniProt P9WHT9, 58-291 limits assumed: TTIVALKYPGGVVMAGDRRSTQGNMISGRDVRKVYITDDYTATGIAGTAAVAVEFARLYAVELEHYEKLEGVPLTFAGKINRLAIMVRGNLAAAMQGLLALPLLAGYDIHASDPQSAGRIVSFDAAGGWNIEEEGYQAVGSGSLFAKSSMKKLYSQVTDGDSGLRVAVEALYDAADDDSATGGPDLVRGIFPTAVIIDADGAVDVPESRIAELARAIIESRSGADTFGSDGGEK
UniProt P9WHU1, whole entry partner: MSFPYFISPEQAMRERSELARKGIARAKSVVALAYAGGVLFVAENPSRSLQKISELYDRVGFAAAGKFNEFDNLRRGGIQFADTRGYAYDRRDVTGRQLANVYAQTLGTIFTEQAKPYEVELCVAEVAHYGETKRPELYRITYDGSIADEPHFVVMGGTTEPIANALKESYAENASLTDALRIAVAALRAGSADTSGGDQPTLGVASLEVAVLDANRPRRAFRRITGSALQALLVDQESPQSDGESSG

Drawing on patent publication USRE49816E1, “Dipeptides as inhibitors of human immunoproteasomes” (CORNELL UNIVERSITY, priority 2014, dated 2024), this text covers IC50 for 1 compound.

The assay has as its target Mtb20S (Mycobacterium tuberculosis, UniProt P9WHT9). As to the kind of experiment: Dipeptide boronates IC50 vs Mtb20S. The note with it: read-out: IC50 Mtb20S.

Turning to `CC(=O)N[C@@H](Cc1ccccc1)C(=O)NC(Cc1cccc2ccccc12)B(O)O` (stereo partly shown), the IC50 turned out to be 100 nM.
